Experimental data from article PMC4604408, “Targeting the Parasite's DNA with Methyltriazenyl Purine Analogs Is a Safe, Selective, and Efficacious Antitrypanosomal Strategy” (Antimicrobial Agents and Chemotherapy, 2015).

Legend:
Tbb msh2+/- = assay: Alamar Blue assay on trypanosomes lacking one MSH2 allele; assay type: cell-based, Trypanosoma brucei; conditions: read-out: Tbb msh2+/- (EC50; µM) AVG; average of at least 3 independent experiments
Tbb msh2+/+ = assay: Alamar Blue assay on MMR-proficient control trypanosomes; assay type: cell-based, Trypanosoma brucei; conditions: read-out: Tbb msh2+/+ (EC50; µM) AVG; average of at least 3 independent experiments
Tbb msh2-/- = assay: Alamar Blue assay on trypanosomes lacking both MSH2 alleles; assay type: cell-based, Trypanosoma brucei; conditions: for EC50: read-out: Tbb msh2-/- (EC50; µM) AVG, average of at least 3 independent experiments
[1] = tested on: bloodstream-form T. brucei; assay: potency in Creek's minimal medium with inosine or hypoxanthine as purine source; assay type: cell-based; conditions: same concentration of inosine or hypoxanthine

| Compound | EC50 (Tbb msh2+/-) | EC50 (Tbb msh2+/+) | potency against cells with impaired or lost MSH2 activity (Tbb msh2-/-; MSH2^+/− and MSH2^−/− compared with MSH2^+/+) | EC50 (Tbb msh2-/-) | sensitivity (EC50) in medium with inosine compared to hypoxanthine as purine source [1] |
| --- | --- | --- | --- | --- | --- |
| N-methyl-N′-nitro-N-nitrosoguanidine | 8.6 µM | 3.3 µM | reduced potency | 22.4 µM |  |
| O=[As]c1ccccc1 (centres unmarked) |  |  |  |  | not significantly different |
| Phleomycin | 0.11 µM | 0.2 µM |  | 0.068 µM |  |
